Measured values from several laboratories, pooled; numbers as filed in NIAID ChemDB.

All rows: host cell toxicity; cells: MT-4; measure: CC50

Rows are shuffled and stem from different studies. CCn: concentration that lowers growth or viability of the cells by n%. An empty or dashed field is not shown.

smiles,method,result
CC(NC(=S)Nc1nc2ccccc2s1)c1ccccc1,MTT,38 µM
C=CCn1c(=O)c(C)cn([C@H]2C[C@H](N=[N+]=[N-])[C@@H](CO)O2)c1=O,-,214 µM
Cn1c(Cl)c(N=Nc2ccc(Cl)cc2)c(N)nc1=O,MTT,2.15 µM
O=c1cc(Cc2ccccc2)nc(OCC2CCCO2)[nH]1,-,>1000 µM
C=C(C)[C@@H]1CC[C@]2(C(=O)NCCCCCCCC(=O)N[C@@H](CC(C)C)[C@H](O)CC(=O)O)CC[C@]3(C)[C@H](CC[C@@H]4[C@@]5(C)CC[C@H](O)C(C)(C)[C@@H]5CC[C@]43C)[C@@H]12,-,>10 µM
C/C=C(\C)C(=O)O[C@H]1[C@H](OC(C)=O)[C@@]23C(CC1(C)C)[C@]1(CCC4[C@@]5(C)CC[C@H](O[C@@H]6O[C@H](CO)[C@@H](O)[C@H](O[C@@H]7O[C@H](CO)[C@H](O)[C@H](O)[C@H]7O[C@@H]7O[C@@H](C)[C@H](O)[C@@H](O)[C@H]7O)[C@H]6O[C@@H]6O[C@H](CO)[C@H](O)[C@H](O)[C@H]6O)C(C)(C)C5CC[C@@]4(C)[C@]1(C)C[C@H]2OC(C)=O)O[C@@H]3O,MTT,<150 µg/mL
CNC(=O)c1c(O)c2ncc(Cc3ccc(F)cc3)c3c2n(c1=O)C[C@](C)(c1nnc(C)o1)O3,-,42 µM
CSCC[C@H](NS(=O)(=O)c1ccc(C)cc1)c1n[nH]c(=S)o1,-,71 µg/mL
Nc1nc2c(ncn2COC(CO)CO)c(=O)[nH]1,-,>10 µM
CCCOc1nc(Cc2ccccc2)c(C)c(=O)[nH]1,-,244 µM
C=C(C)[C@@H]1CC[C@]2(C(=O)NCCCCCCCC(=O)N[C@@H](CC(C)C)[C@H](O)CC(=O)O)CC[C@]3(C)[C@H](CC[C@@H]4[C@@]5(C)CC[C@H](OC(=O)CC(C)(C)C(=O)O)C(C)(C)[C@@H]5CC[C@]43C)[C@@H]12,-,>10 µM
C/C=C(\C)C(=O)O[C@H]1[C@H](OC(=O)/C(C)=C/C)[C@@]23C(CC1(C)C)[C@]1(CCC4[C@@]5(C)CC[C@H](O[C@@H]6O[C@H](CO)[C@@H](O)[C@H](O[C@@H]7O[C@H](CO)[C@H](O)[C@H](O)[C@H]7O[C@@H]7O[C@@H](C)[C@H](O)[C@@H](O)[C@H]7O)[C@H]6O[C@@H]6O[C@H](CO)[C@H](O)[C@H](O)[C@H]6O)C(C)(C)C5CC[C@@]4(C)[C@]1(C)C[C@H]2OC(C)=O)O[C@@H]3O,MTT,<150 µg/mL
CCn1c(C)c(C(=O)OC)c(C(=O)OC)c1Cc1ccccc1,-,69 µM
Cc1cn([C@H]2C[C@H](N=[N+]=[N-])[C@@H](CO)O2)c(=O)n(Cc2ccccc2)c1=O,-,210 µM
C=C1C(n2cnc3c(N)ncnc32)C=CC1(CO)CO,-,99 µM
O=S(=O)(NCCCc1n[nH]c(=S)o1)c1ccc(Cl)cc1,-,70 µg/mL
C=C(C)[C@@H]1CC[C@]2(C(=O)NCCCCCCCCCNC(C)=O)CC[C@]3(C)[C@H](CC[C@@H]4[C@@]5(C)CC[C@H](OC(=O)CC(C)(C)C(=O)O)C(C)(C)[C@@H]5CC[C@]43C)[C@@H]12,-,7.4 µM
C#CCNC(=O)CSc1cnc(Nc2ccc(C#N)cc2)nc1Oc1c(C)cc(C#N)cc1C,MTT,23.8 µM
CC1=C(C)CC(COCP(=O)(OCCSC(=O)C(C)(C)C)OCCSC(=O)C(C)(C)C)(n2cnc3c(N)ncnc32)C1,XTT,47 µM
Fc1ccc(NC(=S)Nc2nc3ccccc3s2)cc1Cl,MTT,14 µM
CC1=C(C)CC(COCP(=O)(O)O)(n2ccc(N)nc2=O)C1,XTT,>100 µM
Cc1c(Cc2ccccc2)nc(OC2CCCC2)[nH]c1=O,-,>1000 µM
CC1(C)CC=C(c2cn(-c3nccc(C(=O)NC4CCC(N5CC6CCC(C5)O6)CC4)n3)c3ccc(F)c([C@H](OC(C)(C)C)C(=O)O)c23)CC1,luminescence,6.84 µM
O=C1CS/C(=N\c2nc3ccccc3s2)N1c1ccccc1Br,MTT,9 µM
O=C(O)c1ccc(-c2c3nc(c(-c4ccc(C(=O)O)cc4)c4ccc([nH]4)c(-c4ccc(C(=O)O)cc4)c4nc(c(-c5ccc(C(=O)O)cc5)c5ccc2[nH]5)C=C4)C=C3)cc1,-,23 µg/mL
C=C1CN(S(=O)(=O)c2ccc(C)cc2)CCCN(Cc2ccccc2)CCCN(S(=O)(=O)c2ccc(C)cc2)C1,-,39 µM
COc1nc(Cc2ccccc2)cc(=O)[nH]1,-,>1000 µM
C/C=C(\C)C(=O)O[C@H]1[C@H](OC(=O)CC)[C@@]23C(CC1(C)C)[C@]1(CCC4[C@@]5(C)CC[C@H](O[C@@H]6O[C@H](CO)[C@@H](O)[C@H](O[C@@H]7O[C@H](CO)[C@H](O)[C@H](O)[C@H]7O[C@@H]7O[C@@H](C)[C@H](O)[C@@H](O)[C@H]7O)[C@H]6O[C@@H]6O[C@H](CO)[C@H](O)[C@H](O)[C@H]6O)C(C)(C)C5CC[C@@]4(C)[C@]1(C)C[C@H]2OC(C)=O)O[C@@H]3O,MTT,<150 µg/mL
C=C(C)[C@@H]1CC[C@]2(C(=O)NCCCCCCCCCCC(=O)O)CC[C@]3(C)[C@H](CC[C@@H]4[C@@]5(C)CC[C@H](OC(=O)CC(C)(C)C(=O)O)C(C)(C)[C@@H]5CC[C@]43C)[C@@H]12,-,6 µM
C=C(C)[C@@H]1CC[C@]2(C(=O)O)CC[C@]3(C)[C@H](CC[C@@H]4[C@@]5(C)CC[C@H](OC(=O)CC(C)(C)C(=O)O)C(C)(C)[C@@H]5CC[C@]43C)[C@@H]12,-,>5 µM
COc1nc(Cc2ccccc2)c(C)c(=O)[nH]1,-,517 µM
CCn1cc(C(=O)O)c(=O)c2cc(F)c(N3CCN(c4ccccc4OC)CC3)c(OC(F)F)c21,-,10 µg/mL
C=C(C)[C@@H]1CC[C@]2(C(=O)N[C@@H](CC(C)C)C(=O)O)CC[C@]3(C)[C@H](CC[C@@H]4[C@@]5(C)CC[C@H](OC(=O)CC(C)(C)C(=O)O)C(C)(C)[C@@H]5CC[C@]43C)[C@@H]12,-,12.2 µM
CCC(Cc1cccc(NS(=O)(=O)c2ccc(NC(C)=O)cc2)c1)c1cc(O)c(C(c2ccccc2)C2CC2)c(=O)o1,-,170.4 µM
Cc1cc(C(C)(C)C)ccc1NC(=S)Nc1nc2ccccc2s1,MTT,8.6 µM
COC(=O)CCSc1cnc(Nc2ccc(C#N)cc2)nc1Oc1c(C)cc(C#N)cc1C,MTT,34.7 µM
CCn1c(=O)c(C)cn([C@H]2C[C@H](N=[N+]=[N-])[C@@H](CO)O2)c1=O,-,282 µM
O=C(O)c1cn(C2CC2)c2c(OC(F)F)c(N3CCN(c4ncccc4[N+](=O)[O-])CC3)c(F)cc2c1=O,-,125 µg/mL
C=C(C)[C@@H]1CC[C@]2(C(=O)NCCCCCCCCNC(C)=O)CC[C@]3(C)[C@H](CC[C@@H]4[C@@]5(C)CC[C@H](OC(=O)CC(C)(C)C(=O)O)C(C)(C)[C@@H]5CC[C@]43C)[C@@H]12,-,7 µM
Cc1cc(C(C)(C)C)ccc1N1C(=O)CS/C1=N\c1nc2ccccc2s1,MTT,86 µM
Cc1cn([C@H]2C[C@H](N=[N+]=[N-])[C@@H](CO)O2)c(=O)n(C)c1=O,-,>500 µM
COc1ccc(S(=O)(=O)NCCCc2n[nH]c(=S)o2)cc1,-,110 µg/mL
S=C(Nc1nc2ccccc2s1)Nc1ccccc1Br,MTT,1.6 µM
OC[C@H]1O[C@@H](n2nc3ccnc(Cl)c3n2)[C@H](O)[C@@H]1O,-,>398 µM
O=c1cc(Cc2ccccc2)[nH]c(=O)[nH]1,-,>1000 µM
Cc1ccc(-c2nnc(-c3ccc(NS(=O)(=O)c4ccc(C)cc4)cc3)o2)cc1,-,119 µg/mL
C=C(C)[C@@H]1CC[C@]2(C(=O)NCCCCCCNC(C)=O)CC[C@]3(C)[C@H](CC[C@@H]4[C@@]5(C)CC[C@H](OC(=O)CC(C)(C)C(=O)O)C(C)(C)[C@@H]5CC[C@]43C)[C@@H]12,-,7.5 µM
Nc1nccc2nn([C@@H]3O[C@H](CO)[C@@H](O)[C@H]3O)nc12,-,358 µM
Cc1c(C(C#N)c2ccccc2)nc(SC(C)C)[nH]c1=O,MTT,10.81 µM
C=C(C)[C@@H]1CC[C@]2(C(=O)NCCCCCCCCCCC(=O)O)CC[C@]3(C)[C@H](CC[C@@H]4[C@@]5(C)CC[C@H](OC(=O)C(C)(C)CC(=O)O)C(C)(C)[C@@H]5CC[C@]43C)[C@@H]12,-,8 µM
CCOC(=O)c1ccc(-c2cc(N)nc(=O)n2C)cc1,MTT,75.23 µM
S=C(NCc1ccco1)Nc1nc2ccccc2s1,MTT,67 µM
C/C=C(\C)C(=O)O[C@H]1[C@H](O)[C@@]23C(CC1(C)C)[C@]1(CCC4[C@@]5(C)CC[C@H](O[C@@H]6O[C@H](CO)[C@@H](O)[C@H](O[C@@H]7O[C@H](CO)[C@H](O)[C@H](O)[C@H]7O[C@@H]7O[C@@H](C)[C@H](O)[C@@H](O)[C@H]7O)[C@H]6O[C@@H]6O[C@H](CO)[C@H](O)[C@H](O)[C@H]6O)C(C)(C)C5CC[C@@]4(C)[C@]1(C)C[C@H]2O)O[C@@H]3O,MTT,<150 µg/mL
Cc1cn([C@H]2C[C@H](N=[N+]=[N-])[C@@H](CO)O2)c(=O)[nH]c1=O,MTT,47.4 µg/mL
Nc1nccc2nn([C@H]3C[C@H](O)[C@@H](CO)O3)nc12,-,>396 µM
CC(C)(CS(=O)(=O)[O-])[NH2+]C(=O)C(CC(F)(OC(F)(F)C(F)(OC(F)(F)C(F)(OC(F)(F)C(F)(F)C(F)(F)F)C(F)(F)F)C(F)(F)F)C(F)(F)F)C(F)(OC(F)(F)C(F)(OC(F)(F)C(F)(OC(F)(F)C(F)(F)C(F)(F)F)C(F)(F)F)C(F)(F)F)C(F)(F)F,-,>50 µg/mL
O=C(O)c1cn(C2CC2)c2c(OC(F)F)c(N3CCN(c4ccc(F)cc4)CC3)c(F)cc2c1=O,-,0.68 µg/mL
Cn1c(N2CCCCC2)c(N=Nc2ccc(Cl)cc2)c(N)nc1=O,MTT,20.11 µM
CN[C@@H]1[C@H](O[C@@H]2OC[C@@H](O)[C@H](O)[C@H]2O)[C@@H](O)[C@H](O[C@H]2c3cc(C)c(C(=O)N[C@H](C)C(=O)O)c(O)c3-c3c(cc4c(c3O)C(=O)c3cc(OC)cc(O)c3C4=O)[C@@H]2O)O[C@@H]1C,-,>30 µg/mL
CC(C)=CCn1c(=O)c(C)cn([C@H]2C[C@H](N=[N+]=[N-])[C@@H](CO)O2)c1=O,-,151 µM
COc1ccccc1N1CCN(c2c(F)c(N)c3c(=O)c(C(=O)O)cn(C(C)C)c3c2OC(F)F)CC1,-,1.1 µg/mL
Cc1cc(C#N)cc(C)c1Oc1nc(Nc2ccc(C#N)cc2)ncc1SCC(=O)Nc1ccc(S(C)(=O)=O)cc1,MTT,>208.4 µM
Nc1nc2c(ncn2COCCO)c(=O)[nH]1,-,>100 µM
O=C1CS/C(=N\c2nc3ccccc3s2)N1c1cccc(C(F)(F)F)c1,MTT,67 µM
Cc1c(Cc2ccccc2)nc(OC(C)C)[nH]c1=O,-,243 µM
Cc1cc(C#N)cc(C)c1Oc1nc(Nc2ccc(C#N)cc2)ncc1SCC(=O)NCC1CC1,MTT,20.7 µM
CCc1c(Cc2ccccc2)nc(OC(C)C)[nH]c1=O,-,193 µM
Cc1cc(C)c(-c2c3nc(c(-c4c(C)cc(C)cc4C)c4ccc([nH]4)c(-c4c(C)cc(C)cc4C)c4nc(c(-c5c(C)cc(C)cc5C)c5ccc2[nH]5)C=C4)C=C3)c(C)c1,-,4 µg/mL

9 of the rows above, restated:

smiles,method,result
CSCC[C@H](NS(=O)(=O)c1ccc(C)cc1)c1n[nH]c(=S)o1,-,71 µg/mL
CCn1cc(C(=O)O)c(=O)c2cc(F)c(N3CCN(c4ccccc4OC)CC3)c(OC(F)F)c21,-,10 µg/mL
S=C(NCc1ccco1)Nc1nc2ccccc2s1,MTT,67 µM
Nc1nccc2nn([C@@H]3O[C@H](CO)[C@@H](O)[C@H]3O)nc12,-,358 µM
CCCOc1nc(Cc2ccccc2)c(C)c(=O)[nH]1,-,244 µM
Cc1cc(C(C)(C)C)ccc1NC(=S)Nc1nc2ccccc2s1,MTT,8.6 µM
CC1=C(C)CC(COCP(=O)(O)O)(n2ccc(N)nc2=O)C1,XTT,>100 µM
CC(NC(=S)Nc1nc2ccccc2s1)c1ccccc1,MTT,38 µM
Cc1cc(C(C)(C)C)ccc1N1C(=O)CS/C1=N\c1nc2ccccc2s1,MTT,86 µM